The values that follow come from patent publication US20240317834A1, “COMPOSITIONS AND METHODS FOR NEUROLOGICAL DISEASES” (CODA BIOTHERAPEUTICS, published 2024).

Test [1] addresses T1, CODA807 (Y115D, L131E in SEQ ID NO: 33) (human (chimera of human α7-nAChR and …)).
T1 chain: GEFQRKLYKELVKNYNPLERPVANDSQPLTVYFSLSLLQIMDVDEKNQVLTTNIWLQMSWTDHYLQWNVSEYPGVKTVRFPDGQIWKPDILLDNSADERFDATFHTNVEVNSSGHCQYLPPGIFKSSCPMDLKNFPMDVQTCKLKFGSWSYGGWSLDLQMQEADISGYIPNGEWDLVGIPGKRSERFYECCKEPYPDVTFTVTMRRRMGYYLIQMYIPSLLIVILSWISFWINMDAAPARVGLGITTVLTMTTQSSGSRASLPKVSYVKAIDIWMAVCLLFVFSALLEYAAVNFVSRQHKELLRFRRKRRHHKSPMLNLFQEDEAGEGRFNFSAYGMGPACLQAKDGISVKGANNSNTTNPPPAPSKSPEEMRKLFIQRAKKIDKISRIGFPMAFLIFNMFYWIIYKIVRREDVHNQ

Test [2] addresses T2, CODA806 (Y115D, L131Q in SEQ ID NO: 33) (human (chimera of human α7-nAChR and …)).
T2 chain: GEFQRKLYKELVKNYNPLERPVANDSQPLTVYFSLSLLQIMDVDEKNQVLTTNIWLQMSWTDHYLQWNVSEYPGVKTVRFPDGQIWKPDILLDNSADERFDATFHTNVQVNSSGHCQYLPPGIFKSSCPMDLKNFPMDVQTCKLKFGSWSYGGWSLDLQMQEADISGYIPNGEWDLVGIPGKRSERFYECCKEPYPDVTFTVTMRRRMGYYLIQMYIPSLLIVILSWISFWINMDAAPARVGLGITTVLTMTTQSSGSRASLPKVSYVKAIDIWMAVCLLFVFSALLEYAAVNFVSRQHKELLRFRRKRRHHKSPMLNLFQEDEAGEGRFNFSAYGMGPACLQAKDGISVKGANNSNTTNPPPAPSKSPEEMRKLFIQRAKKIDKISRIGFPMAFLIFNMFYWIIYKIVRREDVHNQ

Test [3] deals with T3, CODA1048 (R101F, Y210F in SEQ ID NO: 33) (human (chimera of human α7-nAChR and …)).
T3 chain: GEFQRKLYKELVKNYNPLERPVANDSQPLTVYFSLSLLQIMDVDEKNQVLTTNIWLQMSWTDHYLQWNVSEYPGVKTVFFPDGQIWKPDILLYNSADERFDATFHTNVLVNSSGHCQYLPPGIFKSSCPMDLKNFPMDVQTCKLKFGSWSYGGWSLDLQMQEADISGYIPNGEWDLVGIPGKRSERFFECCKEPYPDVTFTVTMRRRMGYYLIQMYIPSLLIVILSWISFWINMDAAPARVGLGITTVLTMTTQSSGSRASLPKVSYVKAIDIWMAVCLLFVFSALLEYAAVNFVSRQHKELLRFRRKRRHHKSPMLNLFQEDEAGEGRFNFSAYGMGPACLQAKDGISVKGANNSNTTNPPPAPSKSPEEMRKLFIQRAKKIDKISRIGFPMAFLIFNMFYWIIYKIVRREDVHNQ

Test [4] deals with T4, CODA534 (L131S, S172D in SEQ ID NO: 33) (human (chimera of human α7-nAChR and …)).
T4 chain: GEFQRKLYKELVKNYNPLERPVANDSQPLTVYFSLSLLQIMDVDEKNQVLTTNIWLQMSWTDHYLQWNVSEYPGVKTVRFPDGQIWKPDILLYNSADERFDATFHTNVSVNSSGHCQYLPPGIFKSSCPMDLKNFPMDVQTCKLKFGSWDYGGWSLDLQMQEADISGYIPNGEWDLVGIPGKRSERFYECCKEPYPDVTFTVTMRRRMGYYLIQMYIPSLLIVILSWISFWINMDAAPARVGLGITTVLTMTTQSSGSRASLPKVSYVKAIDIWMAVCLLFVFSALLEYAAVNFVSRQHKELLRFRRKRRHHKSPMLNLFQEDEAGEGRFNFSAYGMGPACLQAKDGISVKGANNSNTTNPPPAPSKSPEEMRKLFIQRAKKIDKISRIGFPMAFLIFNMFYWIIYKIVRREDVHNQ

Test [5] deals with T5, CODA409 (Y210W in SEQ ID NO: 33) (human (chimera of human α7-nAChR and …)).
T5 chain: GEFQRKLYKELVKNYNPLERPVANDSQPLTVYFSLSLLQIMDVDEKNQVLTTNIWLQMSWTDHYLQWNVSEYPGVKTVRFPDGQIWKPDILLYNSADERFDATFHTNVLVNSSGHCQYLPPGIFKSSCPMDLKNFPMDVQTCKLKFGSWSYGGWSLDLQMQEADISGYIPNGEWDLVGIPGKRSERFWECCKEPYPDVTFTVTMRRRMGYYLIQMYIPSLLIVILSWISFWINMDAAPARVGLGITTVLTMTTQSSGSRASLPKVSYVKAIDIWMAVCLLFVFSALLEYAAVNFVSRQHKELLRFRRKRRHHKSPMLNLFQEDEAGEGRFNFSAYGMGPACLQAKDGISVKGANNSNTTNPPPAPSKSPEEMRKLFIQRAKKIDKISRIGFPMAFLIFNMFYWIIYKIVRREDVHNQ

Test [6] has as its target T6, CODA335 (L131T in SEQ ID NO: 33) (human (chimera of human α7-nAChR and …)).
T6 chain: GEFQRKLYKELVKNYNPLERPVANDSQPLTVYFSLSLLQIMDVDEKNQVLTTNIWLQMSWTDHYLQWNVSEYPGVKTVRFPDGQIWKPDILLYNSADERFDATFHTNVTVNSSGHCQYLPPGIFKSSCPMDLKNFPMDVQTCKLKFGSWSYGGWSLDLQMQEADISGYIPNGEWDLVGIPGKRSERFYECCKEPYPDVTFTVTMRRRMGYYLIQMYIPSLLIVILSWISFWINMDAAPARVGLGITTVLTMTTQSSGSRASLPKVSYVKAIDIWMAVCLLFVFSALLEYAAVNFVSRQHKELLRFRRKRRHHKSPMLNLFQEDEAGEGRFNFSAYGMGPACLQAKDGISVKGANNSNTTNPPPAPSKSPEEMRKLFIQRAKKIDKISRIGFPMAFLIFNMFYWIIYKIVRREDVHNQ

B1: α-bungarotoxin conjugated to Alexa Fluor 647 (ligand)
chain: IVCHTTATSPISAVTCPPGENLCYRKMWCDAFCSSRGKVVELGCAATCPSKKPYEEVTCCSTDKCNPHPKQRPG
Consider B1, for which the “Normalized AB MFI” value in test [1] was 1.14 ratio to SEQ ID NO: 33 control; in test [2], 2.04 ratio to SEQ ID NO: 33 control; in test [3], 0.57 ratio to SEQ ID NO: 33 control; in test [5], 0.62 ratio to SEQ ID NO: 33 control; in test [6] it was 1.32 ratio to SEQ ID NO: 33 control. For the same molecule, the “Normalized AB %” value in test [3] was 0.55 ratio to SEQ ID NO: 33 control; in test [4] it was 0.44 ratio to SEQ ID NO: 33 control; in test [5], 0.88 ratio to SEQ ID NO: 33 control.
